Anti-infective test results gathered from many reports (values: NIAID ChemDB through PubChem).

Common to all: whole-cell or culture tests; organism: Mycobacterium smegmatis

Zones are inhibition diameters on agar. Blank or dashed fields: not listed here. Lines come from different laboratories, so protocols vary. MIC50, MIC90 and the like: level of inhibition, or share of isolates inhibited.

| SMILES | strain or isolate | method | measure | tested at | value |
|---|---|---|---|---|---|
| Cc1c(N2CCCC(CN)C2)c(F)cn2c(=O)c(C(=O)O)cc(C3CC3)c12.Cl | ATCC114 |  | MIC |  | 1.56 µg/mL |
| CN(C)[C@@H]1C(=O)C(C(N)=O)=C(O)[C@@]2(O)C(=O)C3=C(O)c4c(O)cccc4[C@@](C)(O)[C@H]3C[C@@H]12 | PMN1 LFR (CCCP) |  | MIC |  | 4 µg/mL |
| CCC1CN(c2c(F)cc3c(=O)c(C(=O)O)cn(C4CC4)c3c2OC)CCN1 | KD2003 (GYRA D95G) |  | MIC99 |  | 0.65 µg/mL |
| COc1ccc(-c2nn(-c3ccccc3)cc2C2C3=C(NC(C)(c4cc(O)c(I)cc4Cl)NC3=O)Oc3c2c(C)nn3-c2ccccc2)cc1 | NCIM 5138 | agar diffusion / agar | zone | 0.1 mg/mL | 8 mm |
| CCN1CCN(c2c(F)cc3c(=O)c(C(=O)O)cn(C4CC4)c3c2F)CC1 | KD2003 (GYRA D95G) |  | MIC99 |  | 2.6 µg/mL |
| Cc1c(N2CCC(CN)CC2)c(F)cn2c(=O)c(C(=O)O)cc(C3CC3)c12.Cl | ATCC114 |  | MIC |  | 0.2 µg/mL |
| CC(C)N1CCN(c2c(F)cc3c(=O)c(C(=O)O)cn(C4CC4)c3c2F)CC1 | KD2003 (GYRA D95G) |  | MIC99 |  | 5.3 µg/mL |
| CCCCCCCCCCCCCCCC[N+](C)(C)CC | MC^2 155 (CCCP) |  | MIC |  | 1 µg/mL |
| Cc1nn(-c2ccccc2)c2c1C(c1cn(-c3ccccc3)nc1-c1ccc(F)cc1)C1=C(NC(C)(c3cc(O)c(I)cc3Cl)NC1=O)O2 | NCIM 5138 | agar diffusion / agar | zone | 0.5 mg/mL | 9 mm |
| CCCC(N)C1CCN(c2c(F)cn3c(=O)c(C(=O)O)cc(C4CC4)c3c2C)C1.Cl | ATCC114 |  | MIC |  | 0.01 µg/mL |
| C[C@H]1NCc2cc(-c3ccc4c(=O)c(C(=O)O)cn(C5CC5)c4c3OC(F)F)ccc21 | A24185 |  | MIC |  | 0.25 µg/mL |
| Cc1c(N2CCC(N(C)C)C2)c(F)cn2c(=O)c(C(=O)O)cc(C3CC3)c12 | ATCC114 |  | MIC |  | 0.39 µg/mL |
| CCC1CN(c2c(F)cc3c(=O)c(C(=O)O)cn(C4CC4)c3c2F)CCN1 | KD1163 (GRYA+) |  | MIC99 |  | 0.068 µg/mL |
| Cc1c(NCCN)c(F)cn2c(=O)c(C(=O)O)cc(C3CC3)c12.Cl | ATCC114 |  | MIC |  | 25 µg/mL |
| COc1ccc(-c2nn(-c3ccccc3)cc2C2C3=C(NC(C)(c4cc(O)ccc4Cl)NC3=O)Oc3c2c(C)nn3-c2ccccc2)cc1 | NCIM 5138 | agar diffusion / agar | zone | 0.5 mg/mL | 4.2 mm |
| CCC1CN(c2cc3c(cc2F)c(=O)c(C(=O)O)cn3C2CC2)CCN1 | KD1163 (GRYA+) |  | MIC99 |  | 0.12 µg/mL |
| C=CC1CN2CCC1CC2C[C@H](O)c1ccnc2ccc(OC)cc12 | ATCC 607 | broth dilution | MIC99 |  | >200 µg/mL |
| O=C(O)c1cn(C2CC2)c2c(F)c(N3CCNCC3)c(F)cc2c1=O | KD1990 (GYRA D95A) |  | MIC99 |  | 0.65 µg/mL |
| Cc1nn(-c2ccccc2)c2c1C(c1cn(-c3ccccc3)nc1-c1ccc(Cl)cc1)C1=C(NC(C)(c3cc(O)cc(O)c3)NC1=O)O2 | NCIM 5138 | agar diffusion / agar | zone | 1 mg/mL | 3.2 mm |

The last 2 rows once more:

SMILES | strain or isolate | method | measure | tested at | value
O=C(O)c1cn(C2CC2)c2c(F)c(N3CCNCC3)c(F)cc2c1=O | KD1990 (GYRA D95A) |  | MIC99 |  | 0.65 µg/mL
Cc1nn(-c2ccccc2)c2c1C(c1cn(-c3ccccc3)nc1-c1ccc(Cl)cc1)C1=C(NC(C)(c3cc(O)cc(O)c3)NC1=O)O2 | NCIM 5138 | agar diffusion / agar | zone | 1 mg/mL | 3.2 mm